Measured values from several laboratories, pooled; numbers as filed in NIAID ChemDB.

Shared fields: growth or infection tests; agent: HIV-1; read by: MTT; read-out: EC50

An empty or dashed field is not shown.

structure,cells,changes,strain or isolate,value
COc1ccc2nc3cc(Cl)ccc3c(N3CCN(CCO)CC3)c2c1,MT-4,-,-,>9 µM
O=c1[nH]cnc2c1ncn2[C@H]1CC[C@@H](CO)O1,MT-4,RT-D67N K70N T215F K219Q,ADP141 (RT D67N K70N T215F K219Q),1.6 µg/mL
Cc1cc(C(O)c2ccc3ccccc3c2)nc(Nc2ccc(C#N)cc2)n1,MT-4,-,IIIB,5.458 µM
CCC(C)n1cc(C(=O)O)c(=O)c2cc(Br)c(Oc3ccnc(Nc4ccc(C#N)cc4)n3)cc21,MT-4,K103N Y181C NNRTI-resistant,IIIB,0.9 µM
N#Cc1ccc(Nc2nccc(C(O)c3ccc4ccccc4c3)n2)cc1,MT-4,-,IIIB,1.277 µM
C=C(C)[C@H](O)COc1cc(OC)c2c(c1)C(=O)c1c(O)ccc(O)c1-2,C8166,-,IIIB,1.46 µg/mL
Nc1ncnc2c1ncn2[C@@H]1OC[C@H](/C=C/P(=O)(O)O)[C@H]1F,MT-4,-,IIIB,34.2 µM
COc1ccc2nc3cc(Cl)ccc3c(NCCCN3CCOCC3)c2c1,MT-4,-,-,>1.9 µM
CC(=O)O[C@H]1[C@H](C)[C@@H]2O[C@](NC(=O)OC(C)(C)C)([C@H]1C)[C@H]1O[C@@H]21,MT-4,-,NL4-3,>76 µM
O=c1[nH]c(=O)n(COCc2ccccc2)c(Sc2ccc(F)cc2F)c1C1CC1,MT-4,E138K,-,>8.38 µM
O=c1c(O)c(-c2cc(O)c(O)c(O)c2)oc2cc(O)cc(O)c12,MT-4,-,IIIB,10.5 µg/mL
C[C@H]1[C@H](O)[C@H](C)[C@@]2(NC(=O)OC(C)(C)C)O[C@@H]1[C@H]1O[C@H]12,MT-4,-,NL4-3,>440 µM
Cc1c(C(C)C2CCCCC2)nc(SCC(=O)c2ccccc2)[nH]c1=O,MT-4,-,IIIB,0.08 µM
Cc1cn([C@H]2C[C@H](N=[N+]=[N-])[C@@H](CO)O2)c(=O)[nH]c1=O,MT-4,RT-D67N K70N T215F K219Q,ADP141 (RT D67N K70N T215F K219Q),0.02 µg/mL
C[C@H]1[C@H](O)[C@H](C)[C@@]2(NC(=O)OC(C)(C)C)O[C@@H]1[C@@H]1O[C@@H]12,MT-4,-,NL4-3,>440 µM
N#Cc1ccc(Nc2nccc(Oc3ccc(C(=O)CC(=O)C(=O)O)cc3)n2)cc1,MT-4,Y188L,IIIB,>48 µM
Nc1ncnc2c1ncn2CCOCP(=O)(O)O,MT-4,-,IIIB,>10 µM
CC1(C)CCc2c(O)ccc([C@@H]3COc4cc(O)ccc4C3)c2O1,MT-4,-,IIIB,>100 µg/mL
Cc1cn([C@H]2C[C@H](N=[N+]=[N-])[C@@H](CO)O2)c(=O)[nH]c1=O,MT-4,Y181C,IIIB,0.008 µM
COc1ccc2nc3cc(Cl)ccc3c(Nc3cccnc3)c2c1,MT-4,-,-,>9 µM
Cc1cc(C)cc(S(=O)(=O)c2c(C(N)=O)[nH]c3ccc(Cl)cc23)c1,MT-4,-,IIIB,0.006 µM
Nc1ncnc2c1ncn2[C@@H]1O[C@H](CO)[C@H]2CC[C@H]21,MT-4,-,NL4-3,17.8 µg/mL
CC1(C)C=Cc2c(ccc3c2OC[C@@H](c2ccc(O)cc2O)C3)O1,MT-4,-,IIIB,2 µg/mL
CCn1cc(C(=O)O)c(=O)c2cc(Br)c(Oc3ccnc(Nc4ccc(C#N)cc4)n3)cc21,MT-4,-,IIIB,0.02 µM
COc1ccc2c(c1)O[C@H]1c3ccc(O)cc3OC[C@@H]21,MT-4,-,IIIB,>100 µg/mL
Cc1cn([C@H]2C[C@H](N=[N+]=[N-])[C@@H](CO)O2)c(=O)[nH]c1=O,MT-4,K103N Y181C NNRTI-resistant,IIIB,0.0052 µM
CC(c1cc(=O)[nH]c(SCC(=O)c2ccccc2)n1)C1CCCCC1,MT-4,-,IIIB,2.17 µM
O=C(O)c1c[nH]c2ccc(Cc3ccccc3)cc2c1=O,MT-4,-,IIIB,>19 µM
Cc1ccnc2c1NC(=O)c1cccnc1N2C1CC1,MT-4,K103N,IIIB,>15 µM
CCc1c(CC2CCCCC2)nc(SCC(=O)c2ccccc2)[nH]c1=O,MT-4,-,IIIB,0.02 µM
CCN(C)C(=O)Oc1nsnc1-c1c(Cl)cccc1Cl,MT-4,-,IIIB,0.037 µM
Cc1ccnc2c1NC(=O)c1cccnc1N2C1CC1,MT-2,-,IIIB,0.171 µM
CC(=O)c1ccc(C)cc1NC(C(N)=O)c1c(Cl)cccc1Cl,MT-4,-,IIIB,0.0009 µg/mL
CC(C)=CCc1c(O)cc2c(c1O)C(=O)CC(c1ccccc1)O2,MT-4,-,IIIB,>100 µg/mL
C=C1[C@H](CO)[C@@H](O)C[C@@H]1n1cnc2c(=O)[nH]c(N)nc21,MT-4,-,IIIB,0.003 µM
C=C1[C@H](CO)[C@@H](O)C[C@@H]1n1cnc2c(=O)[nH]c(N)nc21,MT-4,-,IIIB,0.0022 µM
CC(C)(C)C(=O)SCCOP(=O)(CC[C@H]1CO[C@@H](n2cnc3c(N)ncnc32)[C@@H]1F)OCCSC(=O)C(C)(C)C,MT-4,-,IIIB,2.2 µM
C[C@H]1[C@@H]2O[C@]3(NC(=O)OC(C)(C)C)[C@@H](C)[C@H]1O[C@H]2[C@@H]3Br,MT-4,-,NL4-3,>72 µM
c1cc(CCNCCN2CCCCC2)ccc1CCNCCN1CCCCC1,MT-4,-,NL4-3,0.1 µg/mL
Cc1ccnc2c1NC(=O)c1cccnc1N2C1CC1,MT-4,-,IIIB,0.18 µM
C#Cc1ccc(Nc2nccc(Oc3c(C)cc(-c4cn(CCCC(=O)OC)nn4)cc3C)n2)cc1,MT-4,-,IIIB,0.18 µM
Cc1cc2c3c(c1)-c1c(O)cc(-c4cc5ccc(O)cc5o4)cc1OC3(c1ccc(O)cc1O)Oc1cc(O)ccc1-2,MT-4,-,IIIB,>20 µg/mL
N#Cc1ccc(Nc2nccc(C(O)c3cccc4ccccc34)n2)cc1,MT-4,K103N/Y181C,-,>6.5 µM
O=c1c(O)c(-c2ccc(O)c(O)c2)oc2cc(O)ccc12,MT-4,-,IIIB,>12.5 µg/mL
Cc1cn([C@H]2C[C@H](N=[N+]=[N-])[C@@H](CO)O2)c(=O)[nH]c1=O,MT-4,-,IIIB,0.0019 µM
N#Cc1ccc(Nc2nccc(Oc3cccc(C(=O)CC(=O)C(=O)O)c3)n2)cc1,MT-4,K103N + Y181C,IIIB,>10 µM
CCN(CC)CC(O)CNc1c2ccc(Cl)cc2nc2ccc(OC)cc12,MT-4,-,-,>1.7 µM
CC(CC1CCCCC1)c1cc(=O)[nH]c(SCC(=O)c2ccc(F)cc2)n1,MT-4,-,IIIB,10.9 µM
C[C@H]1[C@@H]2O[C@]3(NC(=O)OC(C)(C)C)[C@@H](C)[C@H]1O[C@H]2[C@@H]3O,MT-4,-,NL4-3,>88 µM
O=C(O)c1cn(CCO)c2ccc(Cc3ccccc3)cc2c1=O,MT-4,-,IIIB,3.1 µM
CC(=O)c1ccc(C)cc1NC(C(N)=O)c1c(Cl)cccc1Cl,MT-4,-,IIIB-R,>10 µM
C[C@@H]1[C@@H]2O[C@]3(NC(=O)OC(C)(C)C)[C@@H](C)[C@H]1O[C@H]2[C@@H]3I,MT-4,-,NL4-3,>63 µM
COC(=O)c1cn(C)c2cc(Oc3ccnc(Nc4ccc(C#N)cc4)n3)c(Br)cc2c1=O,MT-4,-,IIIB,0.32 µM
C=C(C#N)c1cc(C)c(Oc2ccnc(Nc3ccc(CN4CCN(S(C)(=O)=O)CC4)cc3)n2)c(C)c1,MT-4,Y181C,IIIB,0.025 µM
C#Cc1ccc(Nc2nccc(Oc3c(C)cc(-c4cn(CC(=O)Nc5ccc(S(C)(=O)=O)cc5)nn4)cc3C)n2)cc1,MT-4,K103N,IIIB,1.04 µM
O=C([O-])c1cn(CCO)c2ccc(Cc3ccccc3)cc2c1=O.O=C([O-])c1cn(CCO)c2ccc(Cc3ccccc3)cc2c1=O.[Mg+2],MT-4,-,IIIB,4.5 µM
CC(C)=CCN1Cc2cc(Cl)cc3[nH]c(=S)n(c23)C[C@@H]1C,MT-4,-,IIIB,0.0007 µg/mL
COc1cc(OC)nc(N2C(=O)CSC2c2c(Cl)ncnc2Cl)n1,TZM-bl,-,NL4-3,3.58 µM
Cc1cn([C@H]2C[C@H](N=[N+]=[N-])[C@@H](CO)O2)c(=O)[nH]c1=O,MT-2,-,IIIB,0.024 µM
O=c1[nH]cnc2c1ncn2[C@H]1CC[C@@H](CO)O1,MT-4,-,IIIB,12 µM
O=c1c(O)c(-c2ccc(O)c(O)c2)oc2cc(O)cc(O)c12,MT-4,-,IIIB,>100 µg/mL

For reference, 6 entries again:

structure | cells | changes | strain or isolate | value
O=c1c(O)c(-c2ccc(O)c(O)c2)oc2cc(O)ccc12 | MT-4 | - | IIIB | >12.5 µg/mL
CC(C)=CCc1c(O)cc2c(c1O)C(=O)CC(c1ccccc1)O2 | MT-4 | - | IIIB | >100 µg/mL
C=C1[C@H](CO)[C@@H](O)C[C@@H]1n1cnc2c(=O)[nH]c(N)nc21 | MT-4 | - | IIIB | 0.003 µM
Nc1ncnc2c1ncn2[C@@H]1OC[C@H](/C=C/P(=O)(O)O)[C@H]1F | MT-4 | - | IIIB | 34.2 µM
COc1ccc2nc3cc(Cl)ccc3c(NCCCN3CCOCC3)c2c1 | MT-4 | - | - | >1.9 µM
CCC(C)n1cc(C(=O)O)c(=O)c2cc(Br)c(Oc3ccnc(Nc4ccc(C#N)cc4)n3)cc21 | MT-4 | K103N Y181C NNRTI-resistant | IIIB | 0.9 µM

ECn: concentration that inhibits the pathogen or its effect by n%. Lines come from different laboratories, so protocols vary.